# Single amino acid changes in Zika NS2B-NS3 and viral growth

Source: Ni et al. 2025 (doi:10.1038/s41467-025-63602-z), supplementary data.

The scanned region of Zika virus MR766 is shown below (positions 1-308): NS2B is 2-131, NS3 begins at position 132.
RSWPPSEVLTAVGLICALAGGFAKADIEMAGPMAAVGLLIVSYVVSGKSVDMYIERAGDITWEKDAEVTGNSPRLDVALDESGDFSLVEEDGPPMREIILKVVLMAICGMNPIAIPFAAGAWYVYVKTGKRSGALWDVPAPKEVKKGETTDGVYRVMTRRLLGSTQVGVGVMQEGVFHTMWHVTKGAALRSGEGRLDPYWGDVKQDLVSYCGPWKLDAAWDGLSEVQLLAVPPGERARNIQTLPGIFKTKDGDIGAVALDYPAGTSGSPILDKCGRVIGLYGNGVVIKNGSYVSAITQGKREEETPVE

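Libraries of single mutants were passaged as virus pools on Huh-7.5 cells. Sequencing of three replicate libraries (two for positions 207-308) was averaged into one effect per change. The aim was to find sites where inhibitor-binding pockets cannot change.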

Scale: log2 effect, wild type = 0; the lower, the more harmful to the virus.
A change reads original residue, position, new residue.

- L14R: -7.65
- A17D: -5.39
- I27W: -5.87
- E28G: -7.04
- P32T: -6.97
- P32Y: -4.65
- M33C: -5.20
- A35V: -1.10
- L39*: -6.81
- G47M: -5.97
- I54T: -6.49
- R56S: -3.32
- G58A: -1.28
- D65*: -7.50
- K101E: -4.90
- V103H: -5.53
- L104N: -5.55
- A106E: -5.36
- A106Q: -5.77
- I107K: -5.36
- G120L: -2.05
- V126H: -1.32
- K130*: -6.36
- R131K: -3.61
- L135Y: -6.90
- P139E: -5.03
- A140M: -4.71
- V144M: -1.58
- G147*: -4.41
- R155G: -6.45
- R155M: -5.92
- T158E: -4.95
- R160L: -6.65
- G163Q: -4.89
- S164D: -2.62
- Q166D: -5.10
- G175A: -5.95
- E193P: -0.10
- D197R: -6.73
- D202E: -1.17
- D206G: -7.36
- Y210*: -9.25
- C211E: -3.07
- W214T: -8.53
- A219W: 0.16
- W220C: -6.78
- Q227M: -6.38
- A230M: -4.24
- P232E: -3.32
- E235I: -5.30
- I246A: -4.24
- D251H: -3.19
- G252S: -5.75
- G255*: -8.53
- L259N: -5.03
- Y261H: -4.51
- T265C: -3.33
- S268K: -3.21
- P269F: -4.51
- L271I: -4.22
- D272N: -1.37
- G282L: -5.77
- K288W: -4.62
- V293N: -4.57
- T305P: -0.31

Excerpt, the final 3 entries:

| substitution | log2 growth effect |
|---|---|
| K288W | -4.62 |
| V293N | -4.57 |
| T305P | -0.31 |

Six mutants with high scores were retested singly and none clearly outgrew wild type, so positive values are not proof of better growth.
The region was split into three libraries (1-103, 104-206, 207-308).
Stop codons (*) centre on -7 and mark the level of dead virus.
The authors count -1 or higher as tolerated. Position 1 is the last residue of NS2A.